The list shows a part of the results, in another mix than the full data. Calls of active or inactive are those of the source.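 The calls were made as follows: active = Hck-Nef kinase inhibition above about 50% (limit read from the data); inactive = inhibition below that limit.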

Chains of the proteins cited; added tags and fusions are not shown.
UniProt P08631, whole entry, looked up: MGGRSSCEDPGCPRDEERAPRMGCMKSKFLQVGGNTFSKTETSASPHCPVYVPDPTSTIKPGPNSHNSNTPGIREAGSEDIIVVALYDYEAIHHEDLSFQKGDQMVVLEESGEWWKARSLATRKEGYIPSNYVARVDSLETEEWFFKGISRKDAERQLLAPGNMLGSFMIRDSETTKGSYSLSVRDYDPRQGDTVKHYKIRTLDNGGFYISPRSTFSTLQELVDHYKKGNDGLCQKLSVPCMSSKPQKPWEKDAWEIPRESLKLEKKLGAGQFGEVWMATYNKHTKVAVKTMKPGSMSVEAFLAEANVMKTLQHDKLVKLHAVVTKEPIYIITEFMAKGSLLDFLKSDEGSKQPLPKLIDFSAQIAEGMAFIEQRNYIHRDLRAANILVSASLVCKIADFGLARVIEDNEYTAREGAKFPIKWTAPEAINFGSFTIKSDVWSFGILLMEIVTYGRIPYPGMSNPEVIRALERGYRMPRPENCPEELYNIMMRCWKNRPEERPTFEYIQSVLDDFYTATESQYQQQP

The experiment has as its target Tyrosine-protein kinase HCK (Homo sapiens) (UniProt P08631). In words: inhibitors of Nef-activated human Hck kinase, primary screen, biochemical, Z-Lyte FRET, 384-well, Hck-YEEI (AID 463187).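 Also: 0% = DMSO with Hck plus Nef and 100% = Hck alone without Nef.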 Conditions: Recombinant Hck-YEEI plus Nef, Z-Lyte FRET kinase assay; at 20 µM; active compounds read high.
A word on the inhibition: it is the relative decrease from the control value, in per cent. As to `COc1ccc(C(=O)NCC2(N3CCOCC3)CCCCC2)cc1OC`, the inhibition was inactive: 19.5%. As for `N/C(=N\O)c1c(N)no[n+]1[O-]`, the figure is inactive: -0.0637%. With `O=C(OC1CN2CCC1CC2)C1c2ccccc2C=Cc2ccccc21` (centres undefined), the inhibition is inactive: 2.07%. For `N#Cc1ccc(C(=O)NCC2(N3CCCCC3)CCCCC2)cc1` the value was inactive: 18.2%; for `c1ccc(CN2CCC(Nc3ccccc3)CC2)cc1`, inactive: -10.6%; for `CCN1CCC(Nc2cccc(F)c2)CC1`, inactive: -6.61%. For `CN(C)c1ccc(C(=O)NCC2(N3CCCCC3)CCCCC2)cc1` the value was inactive: 21.5%; for `CCOc1ncccc1C(=O)NCC1(N2CCOCC2)CCCCC1`, inactive: 0.577%. As for `CC(C)(C)OC(=O)N1CCC(Nc2ccccc2)CC1`, the figure is inactive: 13.6%. As to `COc1cc(OC)cc(C(=O)NCC2(N3CCOCC3)CCCCC2)c1`, the inhibition is inactive: -8.89%. For `CCC(CO)(C(=O)OC1CN2CCC1CC2)c1ccccc1` (centres undefined) the value was inactive: 0.42%; for `CCCOc1ccc(C)cc1CN(CCCl)CCCl`, inactive: 2.9%; for `COc1ccc(C(=O)NCC2(N3CCCCC3)CCCCC2)c(OC)c1OC`, inactive: -11.5%.

`O=C(NCC1(N2CCOCC2)CCCCC1)c1cc2ccccc2o1`: the inhibition was inactive: -19.3%.

In the case of `N#CC1(Nc2ccccc2)CCN(Cc2ccccc2)CC1`, the inhibition is inactive: 10.1%. For `O=C(OC1CN2CCC1CC2)C1c2ccccc2Oc2ccccc21` (centres undefined) the value was inactive: -0.337%; for `CCOC(=O)N1CCC(Nc2ccc(OC)cc2)CC1`, inactive: 27%. Consider `CCOc1ccc(C)cc1CN(CCCl)CCCl`, for which the inhibition was inactive: 5.5%. For `COc1ccc(NC2CCN(CCc3ccccc3)CC2)c(OC)c1` the value was inactive: 0.106%; for `Cc1ccc(OCC(C)C)c(CN(CCCl)CCCl)c1`, inactive: -10.3%; for `N#CC1(Nc2ccccc2)CCN(CCc2ccccc2)CC1`, inactive: 1.2%. As for `O=C(NCC1(N2CCCCC2)CCCCC1)c1cccc([N+](=O)[O-])c1`, the figure is inactive: 9.6%; as for `O=C(NCC1(N2CCOCC2)CCCCC1)c1cc(=O)[nH]c2ccccc12`, inactive: -10.2%. For `COc1ccc(NC2CCN(C(=O)OC(C)(C)C)CC2)cc1` the value was inactive: 31.5%; for `CN1CCN(CCOC(=O)C(O)(c2ccccc2)c2ccccc2)CC1`, inactive: 0.967%. For the molecule `CC(C)c1ccc(NC2CCN(C(=O)OC(C)(C)C)CC2)cc1`, the inhibition is inactive: 20.4%. As for `COc1ccc(CN(CCCl)CCCl)cc1Cl`, the figure is inactive: 13.1%; as for `CN(C)c1cccc(C(=O)NCC2(N3CCCCC3)CCCCC2)c1`, inactive: 17.7%; as for `CN1CCC(Nc2cccc(F)c2)CC1`, inactive: -0.288%.
